Data as given in publication PMC3335879, “Selective Inhibitors of Protozoan Protein N-myristoyltransferases as Starting Points for Tropical Disease Medicinal Chemistry Programs” (PLoS Neglected Tropical Diseases, 2012).

Tested on: L. donovani NMT
Assay type: biochemical
Settings: selectivity for Ldon NMT over Pfal NMT derived from IC50 values
Method: Recombinant P. falciparum (Swiss-Prot Q81LW6) and L. donovani NMTs (EMBL accession number FN555136) were produced at the University of York, using established protocols. An assay format based on scintillation proximity technology to monitor enzyme activity was used as previously described, [30].
The Pfizer Global Diverse Representative Set consisting of 150,000 compounds was screened at 20 µM final assay concentration. Assay plates were prepared by dispensing 0.1 µL of compound dissolved in DMSO using the Vario system (Cybio) into white 384-well plates (Greiner Bio-One).
The reaction was initiated by adding 10 µL of the substrate mixture to each well containing the pre-incubated enzyme/compound mixture, and allowed to proceed at RT for 80 min. The reaction was quenched by the addition 20 µl of stop solution to each well. Stop solution consisted of 0.75 M MgCl2 (Sigma), 0.1 M phosphoric acid (Sigma) and 1 mg/ml of streptavidin-coated polystyrene SPA beads (Perkin-Elmer). Plates were sealed using topseals (Perkin-Elmer) and left overnight to allow the bead solution to settle. Radioactive counts were measured with an integration time of 300 sec per plate using the Leadseeker Generation 4 plate reader (GE Healthcare). […] The data were analysed using Pfizer SIGHTS software and visualised using Spotfire software (TIBCO).

## c1cncc(CCNCc2cccc(-c3cccc(CN4CCc5ncsc5C4)c3)c2)c1 [PF-00075634]
  Ldon/Pfal Sel: >505

## NC(CC(=O)N1CC(CO)C(c2ccc(Cl)cc2)C1)Cc1ccc(Cl)cc1 (centres unmarked) [PF-03402623]
  Ldon/Pfal Sel: 770
